Numbering of substitutions follows the chain as printed. Human monoclonal antibodies against the spike receptor-binding domain (heavy:light variable regions). IC50 against pseudoviruses bearing the spike of naturally observed variants; lower = stronger; >10 µg/ml means not reached at the top dose. No active / inactive call. The stated detection limit is 0.0005 µg/ml; values near or below 0.001 µg/ml lie at the floor of the assay.
B1: BD56-1764 (protein)
chain 1: QVQLVQSGAEVRKPGSSVKVSCKASGGPFTTSTFTWVRQAPGQGLEWMGNIIPILGIANYAQKLQDRVTITADKSTSTAYIDLSSLRYEDTAVYFCARETGYSGYLSASYFDYWGQGTPVTISS
chain 2: QSVLTQPPSVSGAPGQRVTISCTGSNSNIGANYDVHWYQQLPGTAPKLLIYSNNNRPSGVPDRFSGSKSDTSASLAITGLQAEDEADYYCQSYDSSLSGAVFGGGTKLTVL
B2: BD56-1767 (protein)
chain 1: QVLLVESGGGVVQPGRSLRLSCAASGFTFSMYGMHWVRQAPGKGLEWVTVISNDGSFKYYGDSVKGRFTISRDNSKNTLYLHMNSLRAEDTAVYYCAKDADYNEFLLIDHWGQGTLVTVSS
chain 2: DIQMTQSPSSLSASVGDRVTITCRASQTISTYLNWYQQRPGKAPKLLIYAASTLQSGVPSRFSGSGSGTDFTLTISSLQPEDFATYYCQQSYSTPPITFGQGTRLEIK
B3: BD56-1777 (protein)
chain 1: QVQLVQSGAEVKKPGSSVKVSCKASEDTFNSYTINWVRQAPGQPLEWMGRIIPLLGITNYAQKFQVRVTITADKSTSTAYMELSSLRSEDTAVYFCARARAPFYGSGYNGALNYFDPWGQGTLVTVSS
chain 2: EIVLTQSPGTLSLSPGERATLSCRASQSVMSIYLAWYQQKPGQAPRLLIYGASNRAAGIPDRFSGSGSVTDFTLTISRLEPEDFAVYYCQQYHSSPFTFGPGTKLEIK
B4: COV2-2258 (protein)
chain 1: EVQLVESGGGVVRPGGSLRLSCAASGFTLDDYGLSWVRHAPGKGLEWVSGINWNGGRTAYADSVKGRFTISRDNAKNSLYLQMNSLRAEDTALYHCARARGPSEQYYDLLTGYYDAFDIWGQGTMVTVSS
chain 2: EIVLTQSPGTLSLSPGERATLSCGASQSISSSYLAWYQQKPGQAPRLLIYGASSRAAGIPDRFSGSGSGTDFTLTISRLEPEDFAVYFCQQYGGSLTFGGGTKVEIK
B5: BD56-1756 (protein)
chain 1: QVQLQESGPGLVKPSQTLSLTCALSGASISSGTYYWSWIRQPAGKGLEWIGRIYTSGSVNYNSSFKSRVTISVDTSKNQISLRLTSVTAADTAVYFCACGGDFRYFDFWGRGTLVTVSS
chain 2: NFMLTQPHSVSESPGKTVTISCSRSSGSIAGNFVQWYQQRPGSAPTTVIYEDNERPSGVPDRFSGSIDSSSNSASLTISGLKTEDEADYYCQSWHSSSVIFGGGTKLTVL
B6: BD56-1761 (protein)
chain 1: QVQLQESGPGLVKPSQTLSLTCSVSGGSISSGTYYWSWVRQPAGKGLEWIGRIYSVGSTNYNASFKSRVTISVDTSKNQFSLRLSSVTAADTAVYYCACGGDFRYFDLWGRGTLITVSS
chain 2: B5 chain 2 with E12A, S23T, S25N, V48L, E54L, S69T, W94Y, H95D, S96G, S98N
B7: BD56-1775 (protein)
chain 1: QVQLVQSGVEVKKPGSSVKVSCKASGGTFSSYAISWVRQAPGQGLEWIGRIIPIFGIVDYAQNFEGRVTITADEATGTTYMDLGSLRSEDTAVYHCARSFVGPKGKEDYYFDYWGQGTLVTVSS
chain 2: EIVLTQSPATLSLSPGERATLSCRASQSIGSHLAWYQQKPGQAPSLLIYDASKRATGTPARFSGSGSGTDFTLTISSLEPADFAVYYCQQRSVRALAFGGGTKVEIK
B8: BD56-1759 (protein)
chain 1: QVTVKEAGPVLVKPTETLTLTCTVSGFSLSNARVGVSWIRQPPGKALEWLAQIFSNDEKSYSTSLKTRLTIFKDTSKSQVVLTMTNMDPADTATYYCALMRVADSSGYYGADWFDPWGQGTLVTVSS
chain 2: DIQMTQSPSSLSASVGDRVTITCRASQSISSYLNWYQQKPGKAPKVLIYAVSRLESGVPSRFSGSGSGTDFTLTISSLQPEDFATYYCQQSYSTLMYTFGQGTKLEMK
B9: BD56-1766 (protein)
chain 1: EVQLVQSGGGLVQPGGSLRLSCAASGFTFSKYDMQWVRQGPGKGLEWVSTIGTAGDTYYVDSVKGRFTISRENAKNSLYLQMNSLRVGDTAVYYCARGSSGWTSYPDYWGQGTLVTVSS
chain 2: B8 chain 2 with S30N, S31R, V46L, R53S, E55Q, P80Y, T94N, L95P, Y97H, M107I
B10: BD56-1779 (protein)
chain 1: EVQLVESGGGLVQPGRSLRLSCAASGFVFDDYAIHWVRQAPGKGLEWVSGVTWNSGTIGYADSVKGRFIISRDNAKNTLYLQMNRLRAEDTALYYCAKDQSGDGERAFDYWGQGTLVTVSS
chain 2: DIQMTQSPSSLSASVGDRVTITCRASQSVRSYLNWYQQKPGKAPNLLIFAASSLQSGVPSRFIGSGSGTDFTLTISSLQPEDFASYYCQQSYNTPPTFGQGTKVEIK
B11: BD56-1780 (protein)
chain 1: EVQLVESGGGLVQPGGSLRVSCAASGFTFSSFEMNWVRQAPGKGLEWVSYISRSGSSTNYVDSVKGRFTISRDNAKNLLYLQMNSLRAEDTAVYYCARAKYGLGSATSDYWGQGTLVTVSS
chain 2: DIQMTQSPSSLSASVGDRVTITCRASQSLNNFLNWYQQKPGKAPKLLIYATSSLQSGVPSRFSGSGSGTDFALTISSLQPEDFATYYCQQSFSVPVTFGQGTKLDIK
B12: COV2-2514 (protein)
chain 1: EVQLVESGGGVVRPGGSLRLSCAASGFIFDDYDMTWVRQAPGKGLEWVSGINWNGGSTGYADSVKGRFTISRDNAKNSLYLQMNSLRAEDTALYHCAVIMSPIPRYSGYDWAGDAFDIWGQGTMVTVSS
chain 2: SSELTQDPAVSVALGQTVRITCQGDSLRSYYASWYQQKPGQVPILVIYDKNNRPSGIPDRFSGSSSGNTASLTITGAQAEDEADYYCNSRDSSGNAVVFGGGTKLTVL

Assays:
Experiment in all cases: pseudovirus neutralization IC50; higher = weaker neutralization
[1] = biological target: SARS-CoV-2 Omicron BA.1 spike pseudovirus
Procedure: (§1)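 Single-round VSV luciferase pseudovirus mixed with antibody dilutions for 1 h and put on Huh-7 cells for about a day; IC50 from the dose curve.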

[2] = biological target: SARS-CoV-2 Omicron BA.2 spike pseudovirus
Procedure: as §1

[3] = biological target: SARS-CoV-2 Omicron BA.2.75 spike pseudovirus
Procedure: as §1

[4] = biological target: SARS-CoV-2 Omicron BA.5 spike pseudovirus
Procedure: as §1

[5] = biological target: SARS-CoV-2 Omicron BQ.1.1 spike pseudovirus
Procedure: as §1

[6] = biological target: SARS-CoV-2 Omicron XBB spike pseudovirus
Procedure: as §1

[7] = biological target: SARS-CoV-2 early D614G spike pseudovirus
Procedure: as §1

Binder	pseudovirus neutralization IC50 [1] [µg/mL]	pseudovirus neutralization IC50 [2] [µg/mL]	pseudovirus neutralization IC50 [3] [µg/mL]	pseudovirus neutralization IC50 [4] [µg/mL]	pseudovirus neutralization IC50 [5] [µg/mL]	pseudovirus neutralization IC50 [6] [µg/mL]	pseudovirus neutralization IC50 [7] [µg/mL]
B1	0.179	0.0696	0.12	> 10	> 10	> 10	0.391
B2	2.83	2.48	2.11	3.43	1.78	5.37	0.511
B3	0.0112	0.0126	0.00365	> 10	> 10	> 10	0.00317
B4	3.6	2.78	1.87	3.79	> 10	> 10	0.579
B5	0.368	0.146	0.0492	> 10	> 10	> 10	0.0664
B6	0.0868	0.0721	0.126	> 10	> 10	> 10	0.122
B7	0.00129	0.00351	0.00217	> 10	> 10	> 10	0.000742
B8	1.17	0.00384	0.169	> 10	> 10	> 10	0.00298
B9	> 10	> 10	> 10	> 10	> 10	> 10	> 10
B10	> 10	> 10	> 10	> 10	> 10	> 10	7.82
B11	0.0187	0.0225	0.0104	> 10	> 10	> 10	0.00293
B12	0.322	> 10	> 10	> 10	> 10	> 10	0.00458

Reference: the supplement of paper PMC9931576
